The values that follow come from patent publication US10874745B2, “Antimicrobial peptides and methods of treating gram-negative pathogens: polar and non-polar face analogs” (priority 2017, dated 2020).

In this data set the test system is A. baumannii strains resistant to Polymyxin B and Colistin. The format is cell-based. The conditions noted are these: MICGM of 7 A. baumannii strains resistant to polymyxin B and colistin.

SMILES strings stand for the structures. Where “and” joins values, the source holds several entries; their conditions need not be identical. Equal values may be shown once. Read-outs that look alike come from different tables or passages of the source. Non-standard residues stand in square brackets, D forms with d. Residues, ends and D or L forms follow the SMILES beside them. *: point of attachment. MeO(CH2CH2O)23CH2CH2CO = COCCOCCOCCOCCOCCOCCOCCOCCOCCOCCOCCOCCOCCOCCOCCOCCOCCOCCOCCOCCOCCOCCOCCOCCC(=O)*; dDab = NCC[C@@H](N)C(=O)O; dDap = NC[C@@H](N)C(=O)O

As for `CC(=O)N[C@H](CCCCN)C(=O)N[C@H](CC(C)C)C(=O)N[C@H](CCN)C(=O)N[C@H](CO)C(=O)N[C@H](CC(C)C)C(=O)N[C@H](CC(C)C)C(=O)N[C@H](CCN)C(=O)N[C@@H](C(=O)N[C@H](CC(C)C)C(=O)N[C@H](CO)C(=O)N[C@H](C)C(=O)N[C@H](C)C(=O)N[C@H](CCCCN)C(=O)N[C@H](CCN)C(=O)N[C@H](CCN)C(=O)N[C@H](CCCCN)C(=O)N[C@H](CC(C)C)C(=O)N[C@H](C)C(=O)N[C@@H](C(=O)N[C@H](CC(C)C)C(=O)N[C@H](CC(C)C)C(=O)N[C@H](CCN)C(=O)N[C@H](C)C(=O)N[C@H](CC(C)C)C(=O)N[C@H](CO)C(=O)N[C@H](CCN)C(N)=O)[C@H](C)O)[C@H](C)O` [Peptide D89, Ac-KL(Dbu)SLL(Dbu)TLSAAK(Dbu)(Dbu)KLATLL(Dbu)ALS(Dbu)-amide] (Ac-[dK][dL][dDab][dS][dL][dL][dDab][dT][dL][dS][dA][dA][dK][dDab][dDab][dK][dL][dA][dT][dL][dL][dDab][dA][dL][dS][dDab]-NH2), the “TI, therapeutic index HC50/MICGM” value is given as greater than 1588.9. For the same molecule, the “TI, therapeutic index HC50/MICGM” value (listed as D89 (6 Dbu-2)) is greater than 1589.

Turning to `CC(=O)N[C@H](CCCCN)C(=O)N[C@H](CC(C)C)C(=O)N[C@H](CCN)C(=O)N[C@H](CO)C(=O)N[C@H](CC(C)C)C(=O)N[C@H](CC(C)C)C(=O)N[C@H](CCN)C(=O)N[C@@H](C(=O)N[C@H](CC(C)C)C(=O)N[C@H](CO)C(=O)N[C@H](CCN)C(=O)N[C@H](C)C(=O)N[C@H](CCCCN)C(=O)N[C@H](C)C(=O)N[C@H](C)C(=O)N[C@H](CCCCN)C(=O)N[C@H](CC(C)C)C(=O)N[C@H](CCN)C(=O)N[C@@H](C(=O)N[C@H](CC(C)C)C(=O)N[C@H](CC(C)C)C(=O)N[C@H](CCN)C(=O)N[C@H](C)C(=O)N[C@H](CC(C)C)C(=O)N[C@H](CO)C(=O)N[C@H](CCN)C(N)=O)[C@H](C)O)[C@H](C)O` [Peptide D86, Ac-KL(Dbu)SLL(Dbu)TLS(Dbu)AKAAKL(Dbu)TLL(Dbu)ALS(Dbu)-amide] (Ac-[dK][dL][dDab][dS][dL][dL][dDab][dT][dL][dS][dDab][dA][dK][dA][dA][dK][dL][dDab][dT][dL][dL][dDab][dA][dL][dS][dDab]-NH2), the “TI, therapeutic index HC50/MICGM” value was > 742 and >741.5.

For the molecule `CC(=O)N[C@H](CCCCN)C(=O)N[C@H](CC(C)C)C(=O)N[C@H](CCCCN)C(=O)N[C@H](CO)C(=O)N[C@H](CC(C)C)C(=O)N[C@H](CC(C)C)C(=O)N[C@H](CCCCN)C(=O)N[C@@H](C(=O)N[C@H](CC(C)C)C(=O)N[C@H](CO)C(=O)N[C@H](CCCCN)C(=O)N[C@H](C)C(=O)N[C@H](CCCCN)C(=O)N[C@H](C)C(=O)N[C@H](C)C(=O)N[C@H](CCCCN)C(=O)N[C@H](CC(C)C)C(=O)N[C@H](CCCCN)C(=O)N[C@@H](C(=O)N[C@H](CC(C)C)C(=O)N[C@H](CC(C)C)C(=O)N[C@H](CCCCN)C(=O)N[C@H](C)C(=O)N[C@H](CC(C)C)C(=O)N[C@H](CO)C(=O)N[C@H](CCCCN)C(N)=O)[C@H](C)O)[C@H](C)O` [Peptide D84, Ac-KL(Lys)SLL(Lys)TLS(Lys)AKAAKL(Lys)TLL(Lys)ALS(Lys)-amide], the “TI, therapeutic index HC50/MICGM” value was found to be 108.6.

For `CC(=O)N[C@H](CCCCN)C(=O)N[C@H](CC(C)C)C(=O)N[C@H](CN)C(=O)N[C@H](CO)C(=O)N[C@H](CC(C)C)C(=O)N[C@H](CC(C)C)C(=O)N[C@H](CN)C(=O)N[C@@H](C(=O)N[C@H](CC(C)C)C(=O)N[C@H](CO)C(=O)N[C@H](C)C(=O)N[C@H](C)C(=O)N[C@H](CCCCN)C(=O)N[C@H](CN)C(=O)N[C@H](CN)C(=O)N[C@H](CCCCN)C(=O)N[C@H](CC(C)C)C(=O)N[C@H](C)C(=O)N[C@@H](C(=O)N[C@H](CC(C)C)C(=O)N[C@H](CC(C)C)C(=O)N[C@H](CN)C(=O)N[C@H](C)C(=O)N[C@H](CC(C)C)C(=O)N[C@H](CO)C(=O)N[C@H](CN)C(N)=O)[C@H](C)O)[C@H](C)O` [Peptide D106, Ac-KL(Dpr)SLL(Dpr)TLSAAK(Dpr)(Dpr)KLATLL(Dpr)ALs(Dpr)-amide] (Ac-[dK][dL][dDap][dS][dL][dL][dDap][dT][dL][dS][dA][dA][dK][dDap][dDap][dK][dL][dA][dT][dL][dL][dDap][dA][dL][dS][dDap]-NH2), the “TI, therapeutic index HC50/MICGM” value came out at 425.3.

For `CC(=O)N[C@H](CCCCN)C(=O)N[C@H](CC(C)C)C(=O)N[C@H](CN)C(=O)N[C@H](CO)C(=O)N[C@H](CC(C)C)C(=O)N[C@H](CC(C)C)C(=O)N[C@H](CN)C(=O)N[C@@H](C(=O)N[C@H](CC(C)C)C(=O)N[C@H](CO)C(=O)N[C@H](CN)C(=O)N[C@H](C)C(=O)N[C@H](CCCCN)C(=O)N[C@H](C)C(=O)N[C@H](C)C(=O)N[C@H](CCCCN)C(=O)N[C@H](CC(C)C)C(=O)N[C@H](CN)C(=O)N[C@@H](C(=O)N[C@H](CC(C)C)C(=O)N[C@H](CC(C)C)C(=O)N[C@H](CN)C(=O)N[C@H](C)C(=O)N[C@H](CC(C)C)C(=O)N[C@H](CO)C(=O)N[C@H](CN)C(N)=O)[C@H](C)O)[C@H](C)O` [Peptide D105, Ac-KL(Dpr)SLL(Dpr)TLS(Dpr)AKAAKL(Dpr)TLL(Dpr)ALS(Dpr)-amide], the “TI, therapeutic index HC50/MICGM” value is > 957 and >956.7.

In the case of `CC(=O)N[C@H](CCCCN)C(=O)N[C@H](CC(C)C)C(=O)N[C@H](CCCN)C(=O)N[C@H](CO)C(=O)N[C@H](CC(C)C)C(=O)N[C@H](CC(C)C)C(=O)N[C@H](CCCN)C(=O)N[C@@H](C(=O)N[C@H](CC(C)C)C(=O)N[C@H](CO)C(=O)N[C@H](CCCN)C(=O)N[C@H](C)C(=O)N[C@H](CCCCN)C(=O)N[C@H](C)C(=O)N[C@H](C)C(=O)N[C@H](CCCCN)C(=O)N[C@H](CC(C)C)C(=O)N[C@H](CCCN)C(=O)N[C@@H](C(=O)N[C@H](CC(C)C)C(=O)N[C@H](CC(C)C)C(=O)N[C@H](CCCN)C(=O)N[C@H](C)C(=O)N[C@H](CC(C)C)C(=O)N[C@H](CO)C(=O)N[C@H](CCCN)C(N)=O)[C@H](C)O)[C@H](C)O` [Peptide D85, Ac-KL(Orn)SLL(Orn)TLS(Orn)AKAAKL(Orn)TLL(Orn)ALS(Orn)-amide], the “TI, therapeutic index HC50/MICGM” value was 292.2.

For `CC(=O)N[C@H](CCCCN)C(=O)N[C@H](CC(C)C)C(=O)N[C@H](CCCCN)C(=O)N[C@H](CO)C(=O)N[C@H](CC(C)C)C(=O)N[C@H](CC(C)C)C(=O)N[C@H](CCCCN)C(=O)N[C@@H](C(=O)N[C@H](CC(C)C)C(=O)N[C@H](CO)C(=O)N[C@H](C)C(=O)N[C@H](C)C(=O)N[C@H](CCCCN)C(=O)N[C@H](CCCCN)C(=O)N[C@H](CCCCN)C(=O)N[C@H](CCCCN)C(=O)N[C@H](CC(C)C)C(=O)N[C@H](C)C(=O)N[C@@H](C(=O)N[C@H](CC(C)C)C(=O)N[C@H](CC(C)C)C(=O)N[C@H](CCCCN)C(=O)N[C@H](C)C(=O)N[C@H](CC(C)C)C(=O)N[C@H](CO)C(=O)N[C@H](CCCCN)C(N)=O)[C@H](C)O)[C@H](C)O` [Peptide D88, Ac-KL(Lys)SLL(Lys)TLSAAK(Lys)(Lys)KLATLL(Lys)ALS(Lys)-amide] (Ac-[dK][dL][dK][dS][dL][dL][dK][dT][dL][dS][dA][dA][dK][dK][dK][dK][dL][dA][dT][dL][dL][dK][dA][dL][dS][dK]-NH2), the “TI, therapeutic index HC50/MICGM” value is on record as 201.5.

As for `COCCOCCOCCOCCOCCOCCOCCOCCOCCOCCOCCOCCOCCOCCOCCOCCOCCOCCOCCOCCOCCOCCOCCOCCC(=O)N[C@H](CCCCN)C(=O)N[C@H](CC(C)C)C(=O)N[C@H](CCN)C(=O)N[C@H](CO)C(=O)N[C@H](CC(C)C)C(=O)N[C@H](CC(C)C)C(=O)N[C@H](CCN)C(=O)N[C@@H](C(=O)N[C@H](CC(C)C)C(=O)N[C@H](CO)C(=O)N[C@H](CCN)C(=O)N[C@H](C)C(=O)N[C@H](CCCCN)C(=O)N[C@H](C)C(=O)N[C@H](C)C(=O)N[C@H](CCCCN)C(=O)N[C@H](CC(C)C)C(=O)N[C@H](CCN)C(=O)N[C@@H](C(=O)N[C@H](CC(C)C)C(=O)N[C@H](CC(C)C)C(=O)N[C@H](CCN)C(=O)N[C@H](C)C(=O)N[C@H](CC(C)C)C(=O)N[C@H](CO)C(=O)N[C@H](CCN)C(N)=O)[C@H](C)O)[C@H](C)O` [Peptide D86PEG1, m-dPEG24-D86] ({MeO(CH2CH2O)23CH2CH2CO}-[dK][dL][dDab][dS][dL][dL][dDab][dT][dL][dS][dDab][dA][dK][dA][dA][dK][dL][dDab][dT][dL][dL][dDab][dA][dL][dS][dDab]-NH2), the “TI, therapeutic index HC50/MICGM” value is listed as 48.8.

As for `CC(=O)N[C@H](C)C(=O)N[C@H](CC(C)C)C(=O)N[C@H](CCCCN)C(=O)N[C@H](CCCCN)C(=O)N[C@H](CC(C)C)C(=O)N[C@H](CC(C)C)C(=O)N[C@H](CCCCN)C(=O)N[C@@H](C(=O)N[C@H](CC(C)C)C(=O)N[C@H](CO)C(=O)N[C@H](CCCCN)C(=O)N[C@H](C)C(=O)N[C@H](CCCCN)C(=O)N[C@H](C)C(=O)N[C@H](C)C(=O)N[C@H](CCCCN)C(=O)N[C@H](CC(C)C)C(=O)N[C@H](CCCCN)C(=O)N[C@@H](C(=O)N[C@H](CC(C)C)C(=O)N[C@H](CC(C)C)C(=O)N[C@H](CCCCN)C(=O)N[C@H](C)C(=O)N[C@H](CC(C)C)C(=O)N[C@H](CO)C(=O)N[C@H](CCCCN)C(N)=O)[C@H](C)O)[C@H](C)O` [D41(Lys13/Lys16)], the “TI, therapeutic index HC50/MICGM” value was 34.3.
